The values that follow come from patent US20070027109A1 (priority 2002, published 2007).

Data set [1] deals with HIV-1 RoJo. The experiment in a line: PBMC assay, HIV-1 RoJo replication (RT activity). The note with it: PBMCs, Example 6. The source says: Human peripheral blood mononuclear cells from a minimum of two donors, that have been blasted with PHA and IL-2, were counted, viability determined by Trypan Blue dye exclusion and mixed in equal ratios. Pooled donors were used to minimize the variability observed between individual donors which results from quantitative and qualitative differences in HIV infection and overall response to the PHA and IL-2 of primary lymphocyte populations. […] Fifty microliters of cells were then distributed to the inner 60 wells of a 96 well round bottom microtiter culture plate in a standard format developed by the Infectious Disease Research department of Southern Research Institute. Each plate contains cell control wells (cells only), virus control wells (cells plus virus), and experimental wells (drug plus cells plus virus). Serially diluted compounds were added to the microtiter plate followed by the appropriate pretitered dilution of HIV-1 RoJo. […] The assay was incubated for 6 days in a humidified atmosphere at 37° C., 5% CO2, after which supernatants were collected, for analysis of RT activity and sister plates analyzed for cell viability by MTS dye reduction. […]
Reverse transcriptase (RT) activity was measured in cell-free supernatants. […]
The IC50 and TC50 values were calculated by linear regression. […]

Data set [2] has as its system human peripheral blood mononuclear cells (PBMCs). In kind it is cell-based. The protocol:
The final volume per well was 200 μL. […] Wells were also examined microscopically and any abnormalities noted.
At assay termination the assay plates were stained with the soluble tetrazolium-based dye MTS (CellTiter96® Reagent Promega) to determine cell viability and quantify compound toxicity. […] At termination of the assay 20 μL of MTS reagent was added per well and incubated for 4 h at 37° C. Adhesive plate sealers were used in place of the lids, the sealed plate was inverted several times to mix the soluble formazan product and the plate was read spectrophotometrically at 490 nm with a Molecular Devices Vmax plate reader.

With “sulfated dextran, 9.5% sulfur, molecular weight 30,000 [DES 9.5% Sulfation]”, the “TI (TC50/IC50)” value in data set [1] is reported as over 26. The substance further displayed a TC50 in data set [2] of 100 µg/mL.
In the case of “sulfated dextran, 12.2% sulfur, molecular weight 36,000 [DES 12.5% Sulfation]”, in data set [1], the “TI (TC50/IC50)” value is given as over 317. Also, the TC50 in data set [2] came to 100 µg/mL.
